Data as given in article PMC11946510, “Binding of small molecules at the P-stalk site of ricin A subunit trigger conformational changes that extend into the active site” (2025).

How the values were obtained:
[1] = target: ricin holotoxin (Ricinus communis, UniProt P02879); test: Protection against cytotoxicity of ricin holotoxin in Vero cells, CellTiter-Glo viability assay; conditions: 48 h
[2] = target: RTA (Ricinus communis, UniProt P02879); test: Fluorescence anisotropy (FA) competitive binding assay: displacement of fluorescent P11 peptide from RTA; conditions: binding energy divided by the number of nonhydrogen atoms

SMILES: CCc1cccc(C)c1-c1ccc(C(=O)O)s1
- Fold increase in ricin viability EC50 relative to ricin alone ([1]; 125 μM compound): 5 fold
- Fold increase in ricin viability EC50 relative to ricin alone ([1]; 500 μM compound): > 500 fold
- LE (ligand efficiency) [2]: 0.46
